The record followed here is US9175077B2, “Nucleic acids encoding biologically active polypeptides derived from a novel early stage pregnancy factor designated maternin (MA)” (NOBEL BIOSCIENCES LLC, priority 1999, dated 2015).

For this assay, the system named is HIV-1. As to the kind of experiment: HIV-1 infection of primary cells in vitro (p24). Type of assay: cell-based. The conditions noted are these: controls at similar, equimolar or higher concentrations. As for the experimental part: Virus (MOI of 0.001) was added to 10^6 cells in RPMI-1640 with 10% FCS. One hour later the various polypeptides were added once. The cells cultured for 3 days with 5 ug PHA and 20 i.m. of II-2/ml at 37°, after which virus was estimated by determining p24 (HIV-1) or p27 (SIV) (Organon-Teknika).
The effect of native and synthetic MA on HIV-1 infection in vitro was evaluated using PHA and II-2 stimulated primary peripheral blood cells (PBMC), CD4+ T-cells enriched fractions from PBMC, and CD14+ macrophage enriched fractions. Infection was with HIV-1 IIIB (PBMC and CD4+ T-cells), HIV-1 Ba-L (macrophages), and two primary HIV-1 isolates not passaged in any cell line (PBMC).

Take “CR127: highly purified native hCG [reference compound]”: the “inhibition of HIV replication (qualitative)” value was “No inhibition”.
